Measured values from several laboratories, pooled; numbers as filed in NIAID ChemDB.

Shared fields: whole-cell or culture tests; agent: Junin virus

ECn is the concentration giving n% inhibition of infection, replication or growth.

structure	endpoint	strain	cells	value
Nc1ccn([C@@H]2C=C(CO)[C@@H](O)[C@H]2O)c(=O)n1	EC50		VERO	0.03 µg/mL
CC(C)=CCC[C@@H](COS(=O)(=O)O)C1CCC2C3CC[C@H]4C[C@H](OS(=O)(=O)O)[C@@H](O)CC4(C)C3CCC21C	EC50	IV4454	VERO	67.4 µg/mL
CC[C@@H](C(C)C)[C@@H](O)[C@H](O)[C@@H](C)[C@H]1CC[C@H]2[C@@H]3CC(=O)[C@H]4C[C@@H](Br)CC[C@]4(C)[C@H]3CC[C@]12C	EC90	IV4454	VERO	3.6 µM
Nc1ncnc2c1ncn2[C@@H]1O[C@H](CO)[C@](O)(C(F)(F)F)[C@H]1O	EC50		VERO	10 µg/mL
Nc1ncnc2c1ncn2[C@H]1C[C@@H](O)[C@H](O)[C@@H]1O	EC50		VERO	30 µg/mL
Nc1ncnc2c1ncn2[C@@H]1C=C(CO)[C@@H](O)[C@H]1O	EC50		VERO	0.5 µg/mL
CC[C@H](O)C1=C[C@@H](n2cnc3c(N)ncnc32)[C@H](O)[C@@H]1O	EC50		VERO	50 µg/mL
Nc1ncnc2c1ccn2[C@@H]1C[C@H](O)[C@@H](O)[C@H]1O	EC50		VERO	6 µg/mL
Nc1ccn(CCCC(O)CF)c(=O)n1	EC50		VERO	>200 µg/mL
CC[C@@H](C(C)C)[C@H](O)[C@@H](O)[C@@H](C)[C@H]1CC[C@H]2[C@@H]3CC(=O)[C@@]4(O)C[C@@H](Br)CC[C@]4(C)[C@H]3CC[C@]12C	EC50	XJCI3	VERO	0.5 µM
Nc1ncnc2c1ncn2CCCC(O)CF	EC50		VERO	>50 µg/mL
CC[C@@H](C(C)C)[C@@H](O)[C@H](O)[C@@H](C)[C@H]1CC[C@H]2[C@@H]3CC(=O)[C@@]4(O)C[C@@H](OC(C)=O)CC[C@]4(C)[C@H]3CC[C@]12C	EC50	IV4454	VERO	2.5 µM
Nc1nccc2c1ncn2[C@@H]1C[C@H](CO)[C@@H](O)[C@H]1O	MIC			1 µg/mL
CC[C@@H](C(C)C)[C@H](O)[C@@H](O)[C@@H](C)[C@H]1CC[C@H]2[C@@H]3CC(=O)[C@@]4(O)C[C@@H](OC(C)=O)CC[C@]4(C)[C@H]3CC[C@]12C	EC50	IV4454	VERO	2 µM
C#C[C@@H](O)C1=C[C@@H](n2cnc3c(N)ncnc32)[C@H](O)[C@@H]1O	EC50		VERO	>50 µg/mL
O=c1ccn([C@@H]2O[C@H](CO)[C@](O)(C(F)(F)F)[C@H]2O)c(=O)[nH]1	EC50		VERO	>200 µg/mL
CC[C@@H](C(C)C)[C@H](O)[C@@H](O)[C@@H](C)[C@H]1CC[C@H]2[C@@H]3CC(=O)[C@@]4(O)C[C@H](O)[C@H](O)C[C@]4(C)[C@H]3CC[C@]12C	EC90	IV4454	VERO	4.1 µM
Nc1nccc2c1ncn2[C@@H]1C=C(CO)[C@@H](O)[C@H]1O	MIC			1 µg/mL

Again, the opening 2 rows:

structure,endpoint,strain,cells,value
Nc1ccn([C@@H]2C=C(CO)[C@@H](O)[C@H]2O)c(=O)n1,EC50,,VERO,0.03 µg/mL
CC(C)=CCC[C@@H](COS(=O)(=O)O)C1CCC2C3CC[C@H]4C[C@H](OS(=O)(=O)O)[C@@H](O)CC4(C)C3CCC21C,EC50,IV4454,VERO,67.4 µg/mL

Rows are shuffled and stem from different studies. An empty or dashed field is not shown.